From patent publication US10800791B2, “Triazole ACC inhibitors and uses thereof” (Gilead Apollo, LLC, priority 2015, dated 2020)

Sequences of proteins named here, by UniProt entry; tags and fusion partners are left off.
UniProt Q00955, whole entry: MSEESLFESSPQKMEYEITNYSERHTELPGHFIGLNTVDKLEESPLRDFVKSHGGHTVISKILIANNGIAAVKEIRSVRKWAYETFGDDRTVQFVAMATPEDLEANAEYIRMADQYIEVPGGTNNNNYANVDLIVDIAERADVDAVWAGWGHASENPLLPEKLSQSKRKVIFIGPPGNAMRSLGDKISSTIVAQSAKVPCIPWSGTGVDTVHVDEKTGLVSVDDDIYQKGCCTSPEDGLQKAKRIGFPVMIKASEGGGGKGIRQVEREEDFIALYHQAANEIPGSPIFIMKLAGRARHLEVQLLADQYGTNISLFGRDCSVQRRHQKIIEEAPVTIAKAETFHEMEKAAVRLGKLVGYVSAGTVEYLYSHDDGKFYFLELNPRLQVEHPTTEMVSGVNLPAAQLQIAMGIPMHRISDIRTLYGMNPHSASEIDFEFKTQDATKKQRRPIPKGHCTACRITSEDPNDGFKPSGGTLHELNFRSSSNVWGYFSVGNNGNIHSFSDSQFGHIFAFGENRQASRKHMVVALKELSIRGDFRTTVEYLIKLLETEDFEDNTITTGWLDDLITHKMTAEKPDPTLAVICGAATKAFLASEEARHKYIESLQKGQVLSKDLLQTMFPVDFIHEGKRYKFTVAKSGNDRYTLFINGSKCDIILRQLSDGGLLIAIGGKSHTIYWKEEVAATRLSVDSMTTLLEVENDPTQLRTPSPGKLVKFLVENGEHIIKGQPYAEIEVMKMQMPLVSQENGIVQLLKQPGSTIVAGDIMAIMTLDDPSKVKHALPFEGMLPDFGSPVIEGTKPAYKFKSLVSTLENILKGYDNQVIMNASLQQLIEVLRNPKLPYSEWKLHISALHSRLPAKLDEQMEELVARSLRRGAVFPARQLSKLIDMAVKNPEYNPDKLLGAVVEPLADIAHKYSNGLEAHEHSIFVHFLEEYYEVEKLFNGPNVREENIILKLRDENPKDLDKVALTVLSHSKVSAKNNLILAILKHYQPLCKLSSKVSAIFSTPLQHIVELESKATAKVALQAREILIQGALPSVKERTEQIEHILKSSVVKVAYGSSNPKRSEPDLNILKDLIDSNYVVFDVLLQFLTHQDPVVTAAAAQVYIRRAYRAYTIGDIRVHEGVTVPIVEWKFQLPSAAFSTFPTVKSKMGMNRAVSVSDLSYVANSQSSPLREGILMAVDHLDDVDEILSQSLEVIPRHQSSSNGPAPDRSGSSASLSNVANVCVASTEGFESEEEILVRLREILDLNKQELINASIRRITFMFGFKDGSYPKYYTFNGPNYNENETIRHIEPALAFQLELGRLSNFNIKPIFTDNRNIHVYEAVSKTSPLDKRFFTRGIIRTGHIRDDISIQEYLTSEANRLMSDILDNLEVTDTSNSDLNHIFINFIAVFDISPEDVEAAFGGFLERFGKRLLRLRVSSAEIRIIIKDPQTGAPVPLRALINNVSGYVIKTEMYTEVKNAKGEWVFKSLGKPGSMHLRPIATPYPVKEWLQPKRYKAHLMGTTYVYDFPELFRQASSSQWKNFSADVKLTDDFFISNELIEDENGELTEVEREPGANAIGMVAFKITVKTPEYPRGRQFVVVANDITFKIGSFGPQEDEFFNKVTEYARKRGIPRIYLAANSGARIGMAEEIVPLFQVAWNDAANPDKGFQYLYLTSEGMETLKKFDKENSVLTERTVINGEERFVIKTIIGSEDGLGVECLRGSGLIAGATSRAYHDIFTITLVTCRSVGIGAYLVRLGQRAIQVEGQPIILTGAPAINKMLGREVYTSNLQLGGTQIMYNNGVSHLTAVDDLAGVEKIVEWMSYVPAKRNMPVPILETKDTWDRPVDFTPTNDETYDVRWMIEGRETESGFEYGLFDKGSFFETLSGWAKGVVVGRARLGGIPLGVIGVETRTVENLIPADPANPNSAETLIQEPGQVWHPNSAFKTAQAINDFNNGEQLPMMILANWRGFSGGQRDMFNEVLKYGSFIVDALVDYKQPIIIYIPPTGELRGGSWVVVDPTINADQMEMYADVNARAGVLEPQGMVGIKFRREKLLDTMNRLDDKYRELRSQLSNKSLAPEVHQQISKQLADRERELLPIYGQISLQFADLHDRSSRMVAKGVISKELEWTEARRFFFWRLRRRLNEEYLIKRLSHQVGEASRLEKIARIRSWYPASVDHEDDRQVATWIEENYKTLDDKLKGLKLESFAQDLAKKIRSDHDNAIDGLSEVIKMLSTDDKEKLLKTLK

Legend:
fungal (fACC2) = fungal (fACC2) (UniProt Q00955)
C. parapsilosis = test: Antifungal Activity Assay (broth microtiter MIC), C. parapsilosis; assay type: cell-based, Candida parapsilosis; conditions: 3 replicates, MIC recorded at 48 h
Procedure: (§1) Compounds of the present invention were evaluated in an Antifungal Activity Assay. An exemplary procedure for the assay, which measures the susceptibility of various Candida species to antifungal compounds, follows. Compounds to be tested (including fluconazole and amphotericin B) were dissolved in DMSO to obtain a solution having a concentration of 1 mg/mL. These stock solutions were sterile filtered using a 0.22 um nylon syringe filter, then diluted in sterile water to achieve a final concentration of 128 μg/mL.
(§2) All species were grown from frozen stock by directly plating on to freshly prepared Sabouraud Dextrose agar (BD, Difco) and incubated overnight in ambient air at 35° C. for 24 h. […] The concentration of the suspension was determined using pre-determined standard curves. […]
(§3) Broth microtiter MIC challenge plates were prepared following CLSI guidelines (M27-A3, Vol. 28 No. 14). The original CLSI guidelines focused on reading Candida MICs after 48 h of incubation. As reading after only 24 h offers a clear advantage of patient care, QC limits are being established for all drugs at 24 h. That being said there are no known interpretive breakpoints for amphotericin B at 24 h and the current fluconazole interpretive breakpoints are based on a 48 h reading. The MICs for the test compounds were recorded at 48 h. […]

C. krusei = test: Antifungal Activity Assay (broth microtiter MIC), C. krusei; assay type: cell-based, Candida krusei; conditions: 3 replicates, MIC recorded at 48 h
Procedure: as §1, §2, §3

C. albicans = test: Antifungal Activity Assay (broth microtiter MIC), C. albicans; assay type: cell-based, Candida albicans; conditions: 3 replicates, MIC recorded at 48 h
Procedure: as §1, §2, §3

COc1ccc(F)cc1[C@@H](Cn1c(=O)n([C@@H](C)C(=O)N(C)C(C)C)c(=O)c2c(C)c(-n3nccn3)sc21)OCCO
IC50 (fungal (fACC2)): 0.4 to 1 nM and 0.3 to 1 nM | MIC, C. parapsilosis ATCC 22019 (C. parapsilosis; Table 3a): C (MIC of 2.1-4.0 μg/mL) | MIC, C. parapsilosis ATCC 22019 (C. parapsilosis; Table 3b (additional results)): C (MIC of 2.01-4.0 μg/mL) | MIC, C. krusei ATCC 6258 (C. krusei; Table 3a): C (MIC of 2.1-4.0 μg/mL) | MIC, C. krusei ATCC 6258 (C. krusei; Table 3b (additional results)): B (MIC of 1.01-2.0 μg/mL) | MIC, C. albicans ATCC 90028 (C. albicans; Table 3a): C (MIC of 2.1-4.0 μg/mL) | MIC, C. albicans ATCC 90028 (C. albicans; Table 3b (additional results)): B (MIC of 1.01-2.0 μg/mL)

Several values for one entry are separate records, joined by “and”; a condition that tells them apart may be missing. Equal entries are not always repeated.
